Results deposited as PubChem BioAssay AID504761 (Drosophila RNAi Screening Center, 2011)
In all, the deposit lists about 22,000 reagents; shown is a random part of those with a known target gene and a result. In the full data, 116 (0.52%) got an active call. 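Calls depend on retest data that are not deposited; infection was ranked per plate without normalising between plates; the unit of the infection score is not given.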 The raw values are shown without normalisation. Reagents against one gene are numbered here. Names joined by + are all predicted targets of the reagent. Not stated in the record: the amount of reagent, the time to read-out.

- Assay: 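Genome-wide fly cell screen for genes dengue virus requires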 (primary screen)
- Cell system: D.Mel-2 cells from Drosophila
- Reagent: long dsRNA against Drosophila genes
- Challenge: infection with dengue virus type 2; dose and infection time not stated
- Detection: 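Cells stained for dengue envelope protein and imaged; percent of infected cells per well on duplicate plates, ranked by infection, with stained nuclei counted for cell number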
- Scale: infection score: higher = more virus-infected cells; cell count: higher = more cells in the well
- Active means: 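Low infection ranks in the two replicates (chance level up to 0.065) followed by a retest with a 1.5-fold or larger significant decrease, p below 0.05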
- Calls: active = confirmed: knock-down lowers infection; inactive = not picked or not confirmed

| Target gene | dsRNA no. | infection score, replicate 1 | infection score, replicate 2 | cell count, replicate 1 | cell count, replicate 2 | Outcome |
| --- | --- | --- | --- | --- | --- | --- |
| Ipk2 (GeneID 33236) | 1 | 18.9 | 6.16 | 5875 | 6364 | inactive |
| Ipk2 (GeneID 33236) | 2 | 3.03 | 2.87 | 6875 | 6908 | inactive |
| CG13323 + CG13324 | 1 | 15.7 | 27.9 | 2375 | 5822 | inactive |
| Drip (GeneID 36236) | 1 | 15.7 | 7.99 | 3879 | 6222 | inactive |
| CG15296 (GeneID 31986) | 1 | 1.87 | 1.03 | 6372 | 6435 | inactive |
| CG15296 (GeneID 31986) | 2 | 1.25 | 0.52 | 6545 | 6106 | active |
| wac (GeneID 38044) | 1 | 5.23 | 3.38 | 5470 | 6149 | inactive |
| wac (GeneID 38044) | 2 | 4.5 | 21.9 | 3024 | 6013 | inactive |
| RagC-D (GeneID 35793) | 1 | 28.9 | 10.3 | 5680 | 6221 | inactive |
| tapas (GeneID 37304) | 1 | 5.43 | 6.1 | 6149 | 6095 | inactive |
| miple2 (GeneID 44787) | 1 | 2.01 | 1.51 | 5914 | 5881 | inactive |
| comt (GeneID 47091) | 1 | 2.97 | 1.5 | 6170 | 6531 | inactive |
| comt (GeneID 47091) | 2 | 2.78 | 5.52 | 5899 | 5635 | inactive |
| mge (GeneID 38459) | 1 | 1.17 | 8.71 | 4805 | 5214 | inactive |
| Nup62 (GeneID 36830) | 1 | 7.81 | 6.27 | 3917 | 2789 | inactive |
| nAChRalpha5 (GeneID 34826) | 1 | 11.8 | 14.5 | 5731 | 5706 | inactive |
| nAChRalpha5 (GeneID 34826) | 2 | 3.67 | 1.73 | 6738 | 6594 | inactive |
| nAChRalpha5 (GeneID 34826) | 3 | 0.83 | 4.46 | 6156 | 6662 | inactive |
| nAChRalpha5 (GeneID 34826) | 4 | 18.2 | 8 | 5808 | 6076 | inactive |
| CG13615 (GeneID 42916) | 1 | 13 | 2.67 | 5145 | 6885 | inactive |
| CG13615 (GeneID 42916) | 2 | 16.2 | 15.8 | 4828 | 5710 | inactive |
| Nap1 (GeneID 37798) | 1 | 37.3 | 1.33 | 4770 | 676 | inactive |
| CG4511 (GeneID 41305) | 1 | 5.5 | 7.32 | 6729 | 1435 | inactive |
| CG4511 (GeneID 41305) | 2 | 12.2 | – | 2239 | 392 | inactive |
| CG31546 (GeneID 40691) | 1 | 3.93 | 7.16 | 6431 | 6953 | inactive |
| CG31546 (GeneID 40691) | 2 | 5.9 | 8.21 | 6132 | 5977 | inactive |
| Trpm (GeneID 36694) | 1 | 5.58 | 9.65 | 5855 | 6080 | inactive |
| Trpm (GeneID 36694) | 2 | 0.84 | 1.37 | 5818 | 7007 | inactive |
| Trpm (GeneID 36694) | 3 | 2.84 | 27.2 | 6027 | 5162 | inactive |
| Trpm (GeneID 36694) | 4 | 11.6 | – | 748 | 275 | inactive |
| CG8664 (GeneID 32719) | 1 | 2.33 | 4.65 | 6696 | 6930 | inactive |
| CG10918 (GeneID 33123) | 1 | 1.24 | 0.32 | 6430 | 5861 | inactive |
| CG10918 (GeneID 33123) | 2 | 1.09 | 0.94 | 6671 | 6260 | active |
| CG9010 (GeneID 36904) | 1 | 6.68 | 6.85 | 6582 | 6366 | inactive |
| CG4377 (GeneID 37489) | 1 | 22.9 | 50.1 | 6018 | 5096 | inactive |
| CG4377 (GeneID 37489) | 2 | 15.7 | 7.88 | 3821 | 2499 | inactive |
| swa (GeneID 31580) | 1 | 14.3 | 3.44 | 497 | 6778 | inactive |
| swa (GeneID 31580) | 2 | 7.34 | 1.98 | 5821 | 6857 | inactive |
| Nepl10 (GeneID 36366) | 1 | 20.8 | 17.2 | 5709 | 6685 | inactive |
| CG1024 (GeneID 40789) | 1 | 3.88 | 6.69 | 6025 | 5930 | inactive |
| salr (GeneID 34568) | 1 | 5.41 | 7.64 | 6302 | 5945 | inactive |
| CG11841 (GeneID 43430) | 1 | 3.16 | 1.41 | 5852 | 6363 | inactive |
| CG11841 (GeneID 43430) | 2 | 15.4 | 14 | 5615 | 6592 | inactive |
| Ppt2 (GeneID 34564) | 1 | 33.8 | 11.1 | 5377 | 5641 | inactive |
| Ppt2 (GeneID 34564) | 2 | 5.36 | 8.63 | 4424 | 5999 | inactive |
| Strip (GeneID 38412) | 1 | 11.5 | 11.7 | 5762 | 4051 | inactive |
| Strip (GeneID 38412) | 2 | 8.87 | 15.8 | 3945 | 3713 | inactive |
| CG9312 (GeneID 41686) | 1 | 11.8 | 15.4 | 2001 | 2957 | inactive |
| Mmp1 (GeneID 37949) | 1 | 2.26 | 4.59 | 6818 | 6426 | inactive |
| Tim17b1 (GeneID 40635) | 1 | 5.47 | 7.63 | 6923 | 6019 | inactive |
| Mur18B (GeneID 32912) | 1 | 5.24 | 3.37 | 6356 | 6851 | inactive |
| Mur18B (GeneID 32912) | 2 | 17.4 | 16.1 | 5221 | 5792 | inactive |
| CG32199 (GeneID 40028) | 1 | 5.79 | 1.44 | 6394 | 6397 | inactive |
| corn (GeneID 38786) | 1 | 19.2 | 19.1 | 5275 | 5352 | inactive |
| corn (GeneID 38786) | 2 | 1.86 | 12 | 6873 | 4549 | inactive |
| corn (GeneID 38786) | 3 | 21.1 | 5.43 | 5536 | 5616 | inactive |
| CG6961 + CG18259 | 1 | 2.65 | 1.23 | 5093 | 5757 | inactive |
| CG6961 + CG18259 | 2 | 1.09 | 2.16 | 6873 | 6380 | inactive |
| CG6961 + CG18259 | 3 | 10 | 6.11 | 6692 | 6322 | inactive |

Laid out differently: results already given.
Target gene,dsRNA no.,"infection score, replicate 1","infection score, replicate 2","cell count, replicate 1","cell count, replicate 2",Outcome
CG10918 (GeneID 33123),2,1.09,0.94,6671,6260,active
CG9010 (GeneID 36904),1,6.68,6.85,6582,6366,inactive
CG4377 (GeneID 37489),1,22.9,50.1,6018,5096,inactive
CG4377 (GeneID 37489),2,15.7,7.88,3821,2499,inactive
